Source: publication PMC4829596 (Frontiers in Microbiology, 2016)

Tested on: D. microsporus
Assay: Production of the isolated compounds in fungal culture, determined by MS with standards
Set-up: species or system Doratomyces microsporus
[1] = supernatant of VPA treated (+VPA, 50 μM) D. microsporus
[2] = supernatant of VPA + Trp treated D. microsporus
[3] = supernatant of tryptophan treated (+Trp) D. microsporus
[4] = supernatant of untreated D. microsporus

Row | SMILES | Amount [1] | x-fold of untreated extract (+Trp) | x-fold of untreated extract (+VPA) | x-fold of untreated extract (VPA + Trp) | Amount [2] | Amount [3] | Amount [4]
1 | CC(C)(O)CC(N)=O [3-hydroxy-3-methylbutanamide] | 0.004 mg/L | – | – | – | – | – | –
2 | O=Cc1ccc(O)cc1 [4FP, p-hydroxybenzaldehyde] | 0.05 mg/L | 1 | 1.25 | 1 | 0.04 mg/L | 0.04 mg/L | 0.04 mg/L
3 | CC(=O)NCCCCC(=O)O [5-acetamido pentanoic acid, 5-acetamidopentanoic acid] | 0.02 mg/L | – | – | – | – | – | –
4 | O=C(O)Cc1c[nH]c2ccccc12 [IAA, indole-3-acetic acid] | 0.08 mg/L | – | 8 | 57 | 0.57 mg/L | 0.43 mg/L | 0.01 mg/L
5 | O=C(O)c1c[nH]c2ccccc12 [ICA, indole-3-carboxylic acid] | 0.05 mg/L | 17 | 5 | 17 | 0.17 mg/L | 0.17 mg/L | 0.01 mg/L
6 | CC(=O)NCCCCCO [N-(5 hydroxy pentyl)acetamide, N-(5-hydroxypentyl)acetamide] | 0.01 mg/L | – | – | – | – | – | –
7 | O=C(O)C(O)Cc1ccccc1 (centres unmarked) [PLA, phenyllactic acid] | 0.07 mg/L | – | – | – | – | – | not detectable
8 | CSCCC1NC(=O)C2CCCN2C1=O [cPM, cyclo-(L-proline-L-methionine)] | 0.07 mg/L | 1 | 3.5 | 2 | 0.04 mg/L | 0.02 mg/L | 0.02 mg/L
